Human monoclonal antibodies against the spike receptor-binding domain (heavy:light variable regions). IC50 against pseudoviruses bearing the spike of naturally observed variants; lower = stronger; >10 µg/ml means not reached at the top dose. No active / inactive call. The stated detection limit is 0.0005 µg/ml; values near or below 0.001 µg/ml lie at the floor of the assay.
How the values were obtained:
Test in all cases: pseudovirus neutralization IC50; higher = weaker neutralization
[1] = biological target: SARS-CoV-2 Omicron BA.1 spike pseudovirus
Protocol: (§1)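 Single-round VSV luciferase pseudovirus mixed with antibody dilutions for 1 h and put on Huh-7 cells for about a day; IC50 from the dose curve.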

[2] = biological target: SARS-CoV-2 Omicron BA.2 spike pseudovirus
Protocol: as §1

[3] = biological target: SARS-CoV-2 Omicron BA.2.75 spike pseudovirus
Protocol: as §1

[4] = biological target: SARS-CoV-2 Omicron BA.5 spike pseudovirus
Protocol: as §1

[5] = biological target: SARS-CoV-2 Omicron BQ.1.1 spike pseudovirus
Protocol: as §1

[6] = biological target: SARS-CoV-2 Omicron XBB spike pseudovirus
Protocol: as §1

[7] = biological target: SARS-CoV-2 early D614G spike pseudovirus
Protocol: as §1

B1: BD56-535 (protein)
chain 1: QITLKESGPTLVKPTQTLTLTCTFSGFSLSSSGEGVAWIRQPPGKALEWLALIYWDNDKRYSPSLKSRLTITKDTSKNQVVFRMTNMDPVDTATYYCAQTPGIDVMFDSWGQGTLVTVSS
chain 2: QSALTQPASVSGSPGQSVTISCTGTSSDLGAFNYVSWYQQHPGKAPRLMIYDVSNRPSGVSNRFSGSKSGNTASLTISGLQAQDEADYFCSSYTTSSVVFGGGTKLTVL
[1]
  pseudovirus neutralization IC50: 0.0122 µg/mL
[2]
  pseudovirus neutralization IC50: 0.00114 µg/mL
[3]
  pseudovirus neutralization IC50: 0.0104 µg/mL
[4]
  pseudovirus neutralization IC50: 0.00181 µg/mL
[5]
  pseudovirus neutralization IC50: > 10 µg/mL
[6]
  pseudovirus neutralization IC50: > 10 µg/mL
[7]
  pseudovirus neutralization IC50: 0.00118 µg/mL

B2: BD56-523 (protein)
chain 1: EVQLVESGGGLVQPGGSLRLSCVASGFTFSSSDMHWVRQVTGKGLEWVSAIGTGGDTYYPDSVKGRFTISRENAKNSLYLQMNSLRAGDTAVYYCARVKCGAESGYEPCWYFDLWGRGTLVTVSS
chain 2: EIVMTQSPATLSVSPGERAALSCRASQSVSNNLAWYQQRPGQAPRLLIYGASTRATGIPARFSGSGSGTEFTLTISSLQSEDFAIYYCQQYYSWPPETFGPGTTVEIK
[1]
  pseudovirus neutralization IC50: 8.64 µg/mL
[2]
  pseudovirus neutralization IC50: 7.75 µg/mL
[3]
  pseudovirus neutralization IC50: 4.44 µg/mL
[4]
  pseudovirus neutralization IC50: 6.85 µg/mL
[5]
  pseudovirus neutralization IC50: 5.9 µg/mL
[6]
  pseudovirus neutralization IC50: 5.8 µg/mL
[7]
  pseudovirus neutralization IC50: 1.7 µg/mL

B3: BD56-540 (protein)
chain 1: QVQLVESGGGVVQPGRSLRLSCAASGFTFRDYAIHWVRQAPGKGLEWVAVISYDGSYKDYADSVKGRFTISRDNSKNTLYLQMNTLRDEDTSVYYCAREGHATVTTLFDYWGQGTLVTVSS
chain 2: DIQMTQSPSSLSASVGDRVTITCRASQSISSYLNWYQQKPGKAPKLLIYAASSLESGVPSRFSGSGSGTDFTLTIRSLQPEDFATYYCQQSYSNPSITFGQGTRLEIK
[1]
  pseudovirus neutralization IC50: 2.38 µg/mL
[2]
  pseudovirus neutralization IC50: 4.82 µg/mL
[3]
  pseudovirus neutralization IC50: 4.67 µg/mL
[4]
  pseudovirus neutralization IC50: 3.2 µg/mL
[5]
  pseudovirus neutralization IC50: 3.44 µg/mL
[6]
  pseudovirus neutralization IC50: 3.56 µg/mL
[7]
  pseudovirus neutralization IC50: 0.306 µg/mL

B4: BD56-545 (protein)
chain 1: QVQLVQSGAEVKKPGASVKVSCKVSGYTLSELSMHWVRQAPGKGLEWMGGFDPEDGETIYAQKFQGRVTMTEDTSTDTAYMELSSLRSEDTALYYCATDFAGAGEPPTVAFVFDYWGQGTLVTVSS
chain 2: EIVLTQSPGTLSLSPGERATLSCRASQSVNSRCLAWYQQKPGQAPRLLIYGASNRATGIPDRFSGSGSGTEFTLTISRLEPEDFAVYYCQQYGSSSYTFGQGTKLEIK
[1]
  pseudovirus neutralization IC50: > 10 µg/mL
[2]
  pseudovirus neutralization IC50: > 10 µg/mL
[3]
  pseudovirus neutralization IC50: > 10 µg/mL
[4]
  pseudovirus neutralization IC50: > 10 µg/mL
[5]
  pseudovirus neutralization IC50: > 10 µg/mL
[6]
  pseudovirus neutralization IC50: > 10 µg/mL
[7]
  pseudovirus neutralization IC50: > 10 µg/mL

B5: BD56-525 (protein)
chain 1: QITLKESGPTLVKPTQTLTLTCTFSGFALSTSGVAVAWIRQPPGKALEWLALIYWNDDKHYSPSLKRRLTITKDTSKKQVVLTMTDMDPVDTATYYCAHNVQLWLTAFEYWGQGTMVTVSS
chain 2: DIQMTQSPSSLSASVGDSVTITCQASQDISNYLNWYQQKPGRAPKLLIFDASNLETGVPSRFSGSGSGTHFSFTISSLQPEDIATYYCQQYDNLPSITFGQGTRLEIK
[1]
  pseudovirus neutralization IC50: 0.246 µg/mL
[2]
  pseudovirus neutralization IC50: 0.229 µg/mL
[3]
  pseudovirus neutralization IC50: 0.28 µg/mL
[4]
  pseudovirus neutralization IC50: 0.242 µg/mL
[5]
  pseudovirus neutralization IC50: > 10 µg/mL
[6]
  pseudovirus neutralization IC50: > 10 µg/mL
[7]
  pseudovirus neutralization IC50: 0.52 µg/mL

B6: BD56-530 (protein)
chain 1: QVTLKESGPVLVKPTETLTLTCTVSGFSLSNARMGVSWIRQPPGKALEWLAHIFSSDEKSYNTSLNSRLTISRDTSKSRVVLNMTNMDPVDTATYYCARIPESAFGGDNWFDPWGQGTLVTVSS
chain 2: SYELTQAPSVSVSPGQTARITCSGDALPKQYAYWYQKKPGQAPVLVIYKDSERPSGIPERFSGSSSGTTVTLTISGVQAEDEADYYCQSGDSSGVVFGGGTKLTVL
[1]
  pseudovirus neutralization IC50: 3.63 µg/mL
[2]
  pseudovirus neutralization IC50: 3.66 µg/mL
[3]
  pseudovirus neutralization IC50: 6.61 µg/mL
[4]
  pseudovirus neutralization IC50: 3.51 µg/mL
[5]
  pseudovirus neutralization IC50: 4.28 µg/mL
[6]
  pseudovirus neutralization IC50: 8.05 µg/mL
[7]
  pseudovirus neutralization IC50: 0.983 µg/mL

Source: the supplement of paper PMC9931576
